The test system of the series is Nc1ncnc2c1ncn2[C@@H]1O[C@H](COP(=O)(O)OP(=O)(O)OP(=O)(O)O)[C@@H](O)[C@H]1O. In words: purified protein. The settings on record: 10 mM MgCl2, pH 7.0, 30 °C, DDM, no drug.

Turning to “PatAB (PatA^WTB^WT) (Streptococcus pneumoniae; Q8DN70:Q521A)”, the Michaelis constant (Km) (as a rule, the substrate concentration at which the rate is half of its maximum) was found to be 2200 ± 1000 µM.

For the origin of these results see PMC9541285, “Drug‐dependent inhibition of nucleotide hydrolysis in the heterodimeric ABC multidrug transporter PatAB from Streptococcus pneumoniae” (The Febs Journal, 2022).
